# Percent effect of library compounds

Source: ChEMBL document CHEMBL3988442, “University of Dundee, Small-Polar-MMV Screening Library” (2021).

A: 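Phenotypic screen: M. tuberculosis growth, glucose 7H9 medium, 3 days; the read-out is not stated. Tested at 500 µM. Higher reads as more growth inhibition (inferred: compounds with an IC50 in retests scored well above the rest). Of about 18,000 compounds tested this way, about 1,400 (7.9%) reached 50% or more in at least one test.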
B: 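Whole-cell growth test on Mycobacterium tuberculosis, read after 4 days in a medium based on cholesterol and the lipid DPPC; the read-out is not stated. Compounds at 500 µM. The record gives no direction; compounds that gave an IC50 in retests scored well above the rest, so higher reads as more growth inhibition. Size under these conditions: about 18,000 compounds, about 900 of them at 50% or above in at least one test.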

The filed quantity is “Percent Effect” (%).
The controls that fix the scale are not given in the record; negative values are as filed.
Many other results are left out here, so strong results are more common than in the screen.
A dash means the value is not listed here; it may have been measured.

compound,A,B
NCCc1nccn1Cc1ccccc1,36.4%,-
O=S(=O)(NC1CNC1)c1ccco1,13.71%,-
CCc1nc(Cn2ccc(C)c(C#N)c2=O)no1,-1.451%,-
CC(C)(C)c1noc(CN2CCC(CO)CC2)n1,29.86%,-
Cc1csc(C(=O)N[C@@H](C)C(N)=O)c1I,12.94%,-
CNC(=O)CN(C)Cc1nnsc1Cl,2.673%,-
CNCc1nc2c(s1)CCCC2,58.46%,56.84%
NC(=O)CN(Cc1ccsc1)C1CC1,-,4.37%
Cn1cnc(S(=O)(=O)NCc2ccccn2)c1Cl,-6.821%,-
Cn1ncnc1CNC(=O)NCc1cc(F)cc(F)c1,-5.708%,-
Cc1cc(CSCC(=O)NCc2cccs2)on1,-,11.33%
CN(C)CC(=O)Nc1cccc(S(N)(=O)=O)c1,-,-23.44%
Cc1ncn(CC(=O)Nc2ccccc2F)c(=O)c1C,-8.503%,-
Cc1cc(F)cc(NCc2ncc[nH]2)c1,45.42%,-
Cc1cc(C)cc(C(=O)NCCCNS(C)(=O)=O)c1,-,-50.28%
COC(C)CCC(=O)NCc1cn2ccccc2n1 (stereo not given),16.67%,-
CC(C)NC(=O)Nc1cccc(S(=O)(=O)C(F)F)c1,69.98%,69.64%
CCOc1cccc(CN2C(=O)CCC2=O)n1,20.46%,14.85%
O=C1CCN(Cc2cc(Br)cc3cccnc23)CCN1,65.19%,59.43%
O=C1CNCN1Cc1ccccc1,2.637%,0.3151%
CNC(=O)C1CN(C(=O)Nc2cccc(Cl)c2Br)C1,12.58%,-
NC(c1cncc(Br)c1)C1CC1 (stereo not given),50.37%,-
COCCNc1nc(-c2ccc(S(N)(=O)=O)cc2)cs1,72.41%,56.74%
CC(=O)Nc1ccccc1CN(C)Cc1nccn1C,8.73%,-
COCCN1CCCN(c2nccc(C)n2)CC1=O,18.95%,-
C=C(Br)CNC(=O)NCC(C)(O)c1ccsc1 (stereo not given),-,15.35%
Cc1nnc(SCCCNC(=O)c2nn(C)cc2Cl)s1,41.83%,-
O=C(NC1CC1)c1ccc2c(c1)CCO2,29.07%,-
CS(=O)(=O)N1CCCC(NC(=O)NC2CC2)C1 (stereo not given),11.1%,-
Nc1ncnn1-c1ccc(C(F)(F)F)cn1,14.45%,17.5%
CNCc1csc(C(C)C)n1,-21.21%,-13.8%
Cc1ccccc1C(C)NC(=O)CN1CSCC1=O (stereo not given),6.122%,-
CC(C)(C)OC(=O)NCC1CCNC1 (stereo not given),26.77%,-
CC(O)CN1C(=O)C=CC1=O (stereo not given),107.4%,114.8%
CS(=O)(=O)CC1(CNCc2ccsc2)CC1,36.56%,-
Clc1ccc(CN2CCNCC2)nc1,-,4.667%
O=C(NC1=NCCS1)c1csc(Br)c1,35.32%,18.48%
CNc1ccc(OCCN2CCCC2)cc1,-,25.54%
Cc1cncc(C(=O)N2CCCC2C(C)(C)O)c1 (stereo not given),-17.82%,-
O=C(NCc1nnc2ccccn12)C1CCOCC1,-,-17.68%
OC[C@@H]1CN(CC2CC2)C[C@H]1c1nc(C2CC2)no1,3.912%,-
CCC1c2ccsc2CCN1C(=O)c1ccc(CN)o1 (stereo not given),73.74%,53.83%
CN(C)S(=O)(=O)NCC(O)c1cccc(C(F)(F)F)c1 (stereo not given),27.02%,-
Cc1noc(CN2CCCCC2CCNS(C)(=O)=O)n1 (stereo not given),-,-12.07%
O=C1N[C@H]2CCC[C@@H]1CN(Cc1ccsc1)C2,-,-4.472%
COc1c(F)cccc1C(=O)NC(C)c1n[nH]c(C)n1 (stereo not given),3.846%,-
COc1ccc2c(c1)NC(=O)C2O (stereo not given),9.805%,-
Cn1ccc(C(=O)NCc2csc(Br)c2)cc1=O,57.51%,39.25%
CCC(CNC(=O)c1cnccn1)N1CCCC1 (stereo not given),7.733%,-
CCCNCc1cc(OC)c(OCC(N)=O)cc1Br,4.994%,-
NCc1ccc(C(N)=O)cc1,-,-0.5838%
COc1ccc(NC(=O)CSCC#N)cc1,22.29%,11.29%
Cc1ncn(CC(O)c2cccc(F)c2)c(=O)c1C (stereo not given),39.31%,-
CS(=O)(=O)NCCc1csc(N2CCCC2)n1,56.33%,-
COC(=O)c1csc(NC(=O)CCn2cccn2)c1,57.84%,-
N[C@@H]1CCO[C@H]1c1ccc(=O)[nH]c1,1.534%,-
CCN1CCC(NC(=O)c2ccc(F)cc2F)CC1,-,-12.73%
COCc1cc(C)nc(SCC#N)c1C#N,4.46%,-
CCCSCCNC1CCNCC1,0.6428%,-
OC[C@@H](Cc1ccccc1)NC1CCCOC1 (stereo not given in full),-,3.828%
CCOC(=O)C(C)Cn1cc(Br)cn1 (stereo not given),10.69%,-
O=C(OCc1cc(=O)n2ccsc2n1)c1cc(Cl)c[nH]1,-,2.422%
CCOc1cc(CNC)cc(Cl)c1OCC(N)=O,13.58%,-
COC(CN)CC(N)=O (stereo not given),-,-1.831%
COc1ccnc(NCc2ccc(CO)c(F)c2)n1,50.68%,-
CN1CCN(C(=O)Cc2ccc3c(c2)OCO3)CC1,-,-24.02%
Cc1ccc(N2C=NS(=O)(=O)c3cccnc32)cc1C,-6.813%,-
COc1ncc(C)cc1N,-125.9%,-
Fc1ccc(N2CCNCC2)nc1,7.624%,-
CCOc1ccc(C(=O)N(C)C2CCN(C)C2=O)cc1 (stereo not given),-7.184%,-15.83%

Once more, the final 8:

* CCOc1cc(CNC)cc(Cl)c1OCC(N)=O : A: 13.58%
* COC(CN)CC(N)=O (stereo not given) : B: -1.831%
* COc1ccnc(NCc2ccc(CO)c(F)c2)n1 : A: 50.68%
* CN1CCN(C(=O)Cc2ccc3c(c2)OCO3)CC1 : B: -24.02%
* Cc1ccc(N2C=NS(=O)(=O)c3cccnc32)cc1C : A: -6.813%
* COc1ncc(C)cc1N : A: -125.9%
* Fc1ccc(N2CCNCC2)nc1 : A: 7.624%
* CCOc1ccc(C(=O)N(C)C2CCN(C)C2=O)cc1 (stereo not given) : A: -7.184%; B: -15.83%